Experimental data: PubChem BioAssay AID1259414 (Drosophila RNAi Screening Center, 2018)
The screen tested about 24,000 reagents; this is a random part of those that have a named target and a result. Of all reagents, about 1,210 (5%) were called active. 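Inactive calls also include excluded dsRNAs with several or no targets, genes unexpressed in JW18, and well A1, regardless of score.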 A plus sign joins genes that one reagent is predicted to hit.

- Aim: 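Fly genes that alter Wolbachia amount inside host cells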 (primary screen)
- Cells: Drosophila JW18 cells infected with Wolbachia
- Reagents: long dsRNA against Drosophila genes, 0.25 µg dsRNA per well of a 384-well plate
- Time to read-out: 5 days
- Challenge: cells persistently infected with Wolbachia before knock-down; no added drug
- Detection: 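Automated imaging of bacterial rRNA staining divided by host cell count, reported as plate-normalised robust z-score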
- Reading the numbers: Wolbachia per cell robust z: higher = more Wolbachia per host cell than the plate typical
- Active means: 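Hit when robust z is 1.5 or more, or -1.5 or less, in at least two of three replicates; excludes dsRNAs with several or no targets, genes not expressed in JW18 and well A1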

no.	Gene	DRSC id	Wolbachia per cell robust z, rep 1	Wolbachia per cell robust z, rep 2	Wolbachia per cell robust z, rep 3	Outcome
1	CG32832 (GeneID 318237)	DRSC01562	1.38	1.3	0.426	inactive
2	CG17026 (GeneID 39739)	DRSC10237	1.22	0.906	1.79	inactive
3	CG17026 (GeneID 39739)	DRSC24059	-1.06	-0.439	-0.79	inactive
4	CHES-1-like (GeneID 31678)	DRSC18447	-0.599	-6.18	-0.167	inactive
5	Ag5r (GeneID 44631)	DRSC19327	-3.28	0.134	0.228	inactive
6	Ag5r (GeneID 44631)	DRSC29999	-0.674	0.32	-0.637	inactive
7	l(3)80Fj (GeneID 3355040)	DRSC38770	-1.51	0.95	0.738	inactive
8	mldr (GeneID 31568)	DRSC18100	-1.25	-0.182	-0.861	inactive
9	mldr (GeneID 31568)	DRSC27990	2.03	-0.0115	1.44	inactive
10	dikar (GeneID 38747)	DRSC09699	-0.52	-3.14	1.26	inactive
11	dikar (GeneID 38747)	DRSC22261	-1.11	-0.486	0.108	inactive
12	dikar (GeneID 38747)	DRSC26562	-0.166	-1.46	-1.59	inactive
13	CheB38b (GeneID 2768933)	DRSC22874	-0.0246	0.384	-0.736	inactive
14	asRNA:CR43259 + CG31089	DRSC15934	0.415	0.732	0.527	inactive
15	GABA-B-R2 (GeneID 42561)	DRSC14134	0.232	-3.9	-0.368	inactive
16	GABA-B-R2 (GeneID 42561)	DRSC28127	0.127	0.149	0.421	inactive
17	CG8929 (GeneID 37306)	DRSC07298	1.05	1.2	-0.386	inactive
18	CG8929 (GeneID 37306)	DRSC22847	0.471	1.03	1.03	inactive
19	CG7365 (GeneID 40200)	DRSC10824	-1.17	-6.93	-0.707	inactive
20	CG7365 (GeneID 40200)	DRSC28680	0.0349	-0.0952	0.163	inactive
21	Mgstl + CR12628	DRSC03702	-0.549	0.584	0.775	inactive
22	CG14452 + CG12546	DRSC29979	0.497	-0.639	-2.77	inactive
23	Rb97D (GeneID 43231)	DRSC16815	0.804	0.9	0.304	inactive
24	Rb97D (GeneID 43231)	DRSC25278	-1.08	-0.799	0.265	inactive
25	Mrp5 (GeneID 42362)	DRSC15597	-1.16	-1.83	-1.09	inactive
26	Mrp5 (GeneID 42362)	DRSC15598	-1.46	0.845	-6.61	inactive
27	Mrp5 (GeneID 42362)	DRSC25669	-0.812	-0.00741	-8.45	inactive
28	S1P (GeneID 40399)	DRSC11810	-1.24	-0.0952	-0.677	inactive

Laid out differently: 4 of the entries above.
Gene	DRSC id	Wolbachia per cell robust z, rep 1	Wolbachia per cell robust z, rep 2	Wolbachia per cell robust z, rep 3	Outcome
GABA-B-R2 (GeneID 42561)	DRSC14134	0.232	-3.9	-0.368	inactive
GABA-B-R2 (GeneID 42561)	DRSC28127	0.127	0.149	0.421	inactive
CG8929 (GeneID 37306)	DRSC07298	1.05	1.2	-0.386	inactive
CG8929 (GeneID 37306)	DRSC22847	0.471	1.03	1.03	inactive
